Among the data in PubChem BioAssay AID504884 (Broad Institute, 2011) are activity values, retold here.

The entries are a selection whose mix differs from that of the whole data set. Some structures show a salt or complex split into parts, the way the source records it. Active and inactive are the calls of the source. Rule as the data show it: active = activity above about 50% (passing the limit was not always enough); inconclusive = no clear call, values can overlap the other calls.

The test system of this test is DNA topoisomerase I (Yersinia pestis CO92). The test is described as follows: Yersinia pestis topoisomerase I inhibitors, primary screen, biochemical, cleavage product accumulation, plate reader, single point (AID 504884). As to conditions: Y. pestis Topo-I cleavage product accumulation, at 10 µM, active compounds read high.
As to `O=[N+]([O-])c1cc([N+](=O)[O-])c(Nc2nnnn2CCO)c([N+](=O)[O-])c1`, the activity is inactive: 5.54%.

For `CC1=C2N=C(C=C3N=C(C(C)=C4[N-][C@@](C)([C@@H]5N=C1[C@](C)(CCC(=O)NC[C@@H](C)OP(=O)([O-])O[C@H]1[C@@H](O)[C@@H](n6cnc7cc(C)c(C)cc76)O[C@@H]1CO)[C@H]5CC(N)=O)[C@@](C)(CC(N)=O)[C@@H]4CCC(N)=O)[C@@](C)(CC(N)=O)[C@@H]3CCC(N)=O)C(C)(C)[C@@H]2CCC(N)=O.[C-]#N.[Co+3]`, the activity was inactive: -2.05%.

Regarding `CCOC(=O)C(CC)C1=NC(C)(C)Cc2ccccc21.O=[N+]([O-])c1cc([N+](=O)[O-])c(O)c([N+](=O)[O-])c1` (centres undefined), the activity was inactive: -0.211%.

In the case of `CP(=O)(Nc1ccc(SC(F)(F)F)cc1)Oc1ccccc1` (centres undefined), the activity was inactive: 25.5%.

For `CCCOc1ccc(NP(C)(=O)Oc2ccc(Cl)cc2)cc1` (centres undefined), the activity is inactive: 46.8%.

Consider `COc1ccccc1OP(C)(=O)Nc1c(C)cccc1C` (centres undefined), for which the activity was inactive: -7.27%.

Consider `CN1CCCCC1COC(=O)C1(O)c2ccccc2CCc2ccccc21` (centres undefined), for which the activity was inactive: 0.856%.

For `O=[N+]([O-])c1cc([N+](=O)[O-])c(-n2nnc3ccccc32)c([N+](=O)[O-])c1`, the activity was inactive: -2.09%.

As to `Cc1nc2ccc3ccccc3c2s1.O=[N+]([O-])c1cc([N+](=O)[O-])c(O)c([N+](=O)[O-])c1`, the activity is inactive: 0.201%.

In the case of `O=[N+]([O-])c1cc([N+](=O)[O-])c(-c2cnn(-c3ccccc3)c2)c([N+](=O)[O-])c1`, the activity was inactive: -9.54%.

Turning to `Cc1cc(C)cc(OP(C)(=O)Nc2ccc(C)cc2C)c1` (centres undefined), the activity was inactive: 13.1%.

As for `CCOC(=O)c1ccc(NP(C)(=O)Oc2cc(C)cc(C)c2)cc1` (centres undefined), the activity was inactive: 23.1%.

Take `COc1ccccc1OP(C)(=O)Nc1cccc(Br)c1` (centres undefined): the activity is inactive: 12.1%.

As to `CP(=O)(Nc1cccc(Br)c1)Oc1ccccc1` (centres undefined), the activity was inactive: 10.6%.

For the molecule `Cc1cc(C)cc(OP(C)(=O)Nc2ccccn2)c1` (centres undefined), the activity was inactive: 4.23%.

Take `Cc1ccc(C)c(NP(C)(=O)Oc2ccccc2)c1` (centres undefined): the activity is inactive: 5.48%.

As to `O=C(O)c1cccc(Nc2c([N+](=O)[O-])cc([N+](=O)[O-])cc2[N+](=O)[O-])c1`, the activity was inactive: 0.179%.

In the case of `CC1=NCCc2c1[nH]c1ccccc21.O=[N+]([O-])c1cc([N+](=O)[O-])c(O)c([N+](=O)[O-])c1`, the activity was inactive: 7.47%.

Take `CC(C)(C)c1ccc(OP(C)(=O)Nc2ccc(SC(F)(F)F)cc2)cc1` (centres undefined): the activity was inactive: -1.86%.

As for `Cc1cccc(C)c1OP(C)(N)=O` (centres undefined), the activity is inactive: -3.22%.

In the case of `O=[N+]([O-])c1ccc2c(c1)C=Nc1ccccc1O2`, the activity was inactive: -6.45%.

In the case of `O=[N+]([O-])c1cc([N+](=O)[O-])c(Nc2cccnc2)c([N+](=O)[O-])c1`, the activity was inactive: -0.928%.

With `COc1ccccc1OP(C)(=O)Nc1cc(Cl)ccc1C` (centres undefined), the activity was inactive: 4.51%.

Turning to `COc1ccc(OP(C)(=O)Nc2cccc(F)c2)cc1` (centres undefined), the activity was inactive: -5.59%.

With `Cc1cc(C)cc(OP(C)(N)=O)c1` (centres undefined), the activity was inactive: -5.93%.

As for `CCOC(=O)c1ccc(NP(C)(=O)Oc2ccccc2)cc1` (centres undefined), the activity was inactive: -0.442%.

As for `COc1ccccc1OP(C)(=O)Nc1ccc(C)cc1` (centres undefined), the activity was inactive: 11.9%.

Regarding `Cc1ccc(NP(C)(=O)Oc2ccccc2)c(C)c1` (centres undefined), the activity was inactive: -0.54%.

For `CCN(CC)CCCOC(=O)C(O)(c1ccccc1)c1ccccc1`, the activity was inactive: 7.12%.

In the case of `CCc1ccc(OP(C)(=O)N2CCN(c3ccc([N+](=O)[O-])cc3)CC2)cc1` (centres undefined), the activity is inactive: 15.3%.

`CP(=O)(NC(=O)Nc1ccccc1)Oc1ccccc1` (centres undefined): the activity is inactive: -0.257%.

With `Cc1cc(C)cc(OP(C)(=O)Nc2ccc(SC(F)(F)F)cc2)c1` (centres undefined), the activity is inactive: 0.285%.

Take `Cc1cccc(C)c1OP(C)(=O)Nc1ccc(SC(F)(F)F)cc1` (centres undefined): the activity is inactive: -3.08%.

`Cc1ccc(Nc2c([N+](=O)[O-])cc([N+](=O)[O-])cc2[N+](=O)[O-])cc1`: the activity is inactive: -10.3%.

As for `CP(=O)(Nc1ccc(SC(F)(F)F)cc1)Oc1ccc(Cl)cc1` (centres undefined), the activity is inactive: 10.2%.

Consider `CP(=O)(Oc1ccccc1)OC(c1ccccc1)C(F)(F)F` (centres undefined), for which the activity is inactive: -14.1%.

`CP(=O)(Nc1ccccn1)Oc1ccc(Cl)cc1` (centres undefined): the activity is inactive: 7.99%.

As for `CCOP(C)(=S)SCC(=O)NC(C)C(=O)O` (centres undefined), the activity was inactive: -4.55%.

Regarding `CCOC(=O)c1ccc(NP(C)(=O)Oc2ccc(OC)cc2)cc1` (centres undefined), the activity is inactive: 11.3%.

As to `O=[N+]([O-])c1cc([N+](=O)[O-])c(O)c([N+](=O)[O-])c1.c1ccc(Oc2ccncc2)cc1`, the activity is inactive: 1.26%.

Consider `COc1ccccc1OP(C)(=O)Nc1ccccc1` (centres undefined), for which the activity is inactive: 11.6%.

In the case of `CP(=O)(Nc1ccccc1Br)Oc1ccccc1` (centres undefined), the activity is inactive: 2%.

For `CP(=S)(Nn1cnnc1)Oc1ccccc1` (centres undefined), the activity is inactive: -5.16%.

Take `CP(=O)(OC12CC3CC(CC(C3)C1)C2)OC12CC3CC(CC(C3)C1)C2`: the activity is inactive: 14.2%.

`CCOC(=O)c1ccc(NP(C)(=O)Oc2ccc(Cl)cc2)cc1` (centres undefined): the activity was inactive: 8.04%.

Regarding `CP(=O)(Oc1ccccc1)N1CCOC1=O` (centres undefined), the activity was inactive: -1.23%.

Turning to `CCc1ccc(OP(C)(=O)Nc2cccnc2)cc1` (centres undefined), the activity is inactive: -4.59%.

In the case of `COc1ccccc1OP(C)(=O)Nc1c(C)n(C)n(-c2ccccc2)c1=O` (centres undefined), the activity is inactive: -0.0055%.

In the case of `O=C(OCCCN1CCCC1)C(O)(c1ccccc1)C1CCCCC1` (centres undefined), the activity was inactive: -4.22%.

For `CCN(CC)CC(O)COC(=O)C(O)(c1ccccc1)C1CCCCC1` (centres undefined), the activity was inactive: -3.26%.

`COc1ccc(OP(C)(=O)Nc2ccc(Br)cc2)cc1` (centres undefined): the activity was inactive: 2.18%.

As for `CN(C)C(=O)c1c([N+](=O)[O-])cc([N+](=O)[O-])cc1[N+](=O)[O-]`, the activity was inactive: -14.9%.

Turning to `CP(=O)(Nc1ccc(Cl)cc1)Oc1ccc(F)cc1` (centres undefined), the activity was inactive: -10.3%.

For `CC(C)(C)c1ccc(OP(C)(=O)O)cc1`, the activity is inactive: 6.95%.

As for `COc1ccccc1OP(C)(=O)Nc1ccccc1Br` (centres undefined), the activity is inactive: 1.36%.

Regarding `CN(C)CCOC(=O)C(O)(c1ccccc1)C1CCCC1` (centres undefined), the activity is inactive: 5.26%.

`COc1ccc(OP(C)(=O)Nc2ccccn2)cc1` (centres undefined): the activity was inactive: -8.1%.

In the case of `COc1ccccc1OP(C)(=O)Nc1ccc(Br)cc1` (centres undefined), the activity is inactive: 4.03%.

Turning to `CCc1ccc(OP(C)(=O)O)cc1`, the activity is inactive: 0.866%.

Take `CP(=O)(Nc1ccccn1)Oc1ccccc1` (centres undefined): the activity was inactive: 4.57%.

For `COc1ccccc1OP(C)(=O)Nc1ccc(C)cc1C` (centres undefined), the activity was inactive: 6.2%.

Consider `O=[N+]([O-])c1cc([N+](=O)[O-])c(Nc2ccccn2)c([N+](=O)[O-])c1`, for which the activity is inactive: -0.0292%.

As for `Cc1c(NP(C)(=O)Oc2ccc(C(C)C)cc2)c(=O)n(-c2ccccc2)n1C` (centres undefined), the activity was inactive: -4.31%.

In the case of `COc1ccc(OP(C)(=O)Nc2ccccc2Br)cc1` (centres undefined), the activity is inactive: 6.08%.

As for `COc1ccccc1OP(C)(=O)Nc1ccc(C)c(C)c1` (centres undefined), the activity was inactive: 13.3%.

In the case of `O=C1C(O)=C([N+](=O)[O-])C(=O)C(O)=C1[N+](=O)[O-]`, the activity is inactive: -7.31%.

As for `Cc1cc(C)cc(OP(C)(=O)Nc2cccc(C(F)(F)F)c2)c1` (centres undefined), the activity was inactive: 25.7%.

Turning to `CP(=O)(OCCOc1ccccc1)OCCOc1ccccc1`, the activity was inactive: 8.68%.

Turning to `CP(=O)(Nc1ccc(Cl)cc1Cl)Oc1ccccc1` (centres undefined), the activity was inactive: 11.7%.

Take `CCCCCCCCCCCCCCCC1C[N+](C)(C)CCOP(C)(=O)O1` (centres undefined): the activity is inactive: -35.1%.

Turning to `COc1ccc(OP(C)(=O)Nc2ccc(SC(F)(F)F)cc2)cc1` (centres undefined), the activity is inactive: 15.8%.

Consider `CCOC(=O)c1ccc(NP(C)(=O)Oc2ccc(F)cc2)cc1` (centres undefined), for which the activity is inactive: 5.46%.

Regarding `O=[N+]([O-])c1cc([N+](=O)[O-])c(OC2CCCCC2O)c([N+](=O)[O-])c1` (centres undefined), the activity is inactive: -8.32%.

For `CCCCCOc1ccc(NP(C)(=O)Oc2ccc(Cl)cc2Cl)cc1` (centres undefined), the activity was inactive: 17.2%.

Regarding `CP(=O)(Nc1ccccc1)Oc1ccc(F)cc1` (centres undefined), the activity was inactive: -12%.

`CCN(CC)CCCOC(=O)C(O)(c1ccccc1)C1CCCCC1` (centres undefined): the activity was inactive: -7.87%.

For `Cc1c([N+](=O)[O-])cc([N+](=O)[O-])c(Br)c1[N+](=O)[O-]`, the activity is inactive: -5.9%.

For the molecule `CC(C)c1ccc(OP(C)(=O)Nc2ccc(SC(F)(F)F)cc2)cc1` (centres undefined), the activity was inactive: 36.4%.

Turning to `CP(=O)(Nc1ccccc1F)Oc1ccccc1` (centres undefined), the activity was inactive: -8.98%.

For the molecule `O=[N+]([O-])c1cc([N+](=O)[O-])c(Nc2ccc(Cl)cc2)c([N+](=O)[O-])c1`, the activity was inactive: -13.8%.

On to `COc1ccc2c(c1O)-c1c(O)c(OC)cc3c1[C@H](C2)[N+](C)(C)CC3.O=[N+]([O-])c1cc([N+](=O)[O-])c([O-])c([N+](=O)[O-])c1[O-]`, for which the activity is inactive: -7.14%.

Take `O=C(OCCN1CCN(CCOCc2ccccc2)CC1)C(O)(c1ccccc1)c1ccccc1`: the activity was inactive: 11.3%.

As to `O=C(OC1CN2CCC1CC2)c1ccc([N+](=O)[O-])cc1` (centres undefined), the activity was inactive: -9.04%.

`CCOP(C)(=S)SCC(=O)NC(C)(CC)C(=O)O` (centres undefined): the activity was inactive: -3.46%.

Turning to `CP(=O)(Nc1ccc(SC(F)(F)F)cc1)Oc1ccc(F)cc1` (centres undefined), the activity was inactive: 8.38%.

Take `Cc1ccccc1NP(C)(=O)Nc1ccccc1C`: the activity is inactive: -0.447%.

In the case of `CP(=O)(Nc1ccc2c(c1)OCCO2)Oc1ccccc1` (centres undefined), the activity was inactive: 2.16%.

On to `COc1ccc(NP(C)(=O)Oc2ccccc2OC)cc1` (centres undefined), for which the activity was inactive: 3.45%.

`CN(C)CCOC(=O)C(O)(c1ccccc1)C1CCCCC1` (centres undefined): the activity was inactive: 5.6%.

`COc1ccc(OP(C)(=O)Nc2cccc(Br)c2)cc1` (centres undefined): the activity was inactive: 15.5%.

Take `Cc1c(C(c2ccc3c(c2)OCO3)c2c(C)n(C)n(-c3ccccc3)c2=O)c(=O)n(-c2ccccc2)n1C.O=[N+]([O-])c1cc([N+](=O)[O-])c(O)c([N+](=O)[O-])c1`: the activity is inactive: -3.93%.

On to `O=[N+]([O-])c1cc([N+](=O)[O-])c(NCC2CCS(=O)(=O)C2)c([N+](=O)[O-])c1` (centres undefined), for which the activity was inactive: 1.88%.

In the case of `Cc1cc(-c2cccc3ccccc23)c(C)cn1.O=[N+]([O-])c1cc([N+](=O)[O-])c(O)c([N+](=O)[O-])c1`, the activity is inactive: 23.8%.

For the molecule `O=[N+]([O-])c1ccc(OP2(=O)COCCO2)cc1` (centres undefined), the activity was inactive: -3.74%.
